Biological target: cytoplasmic tail of glycoprotein E fused to the C-terminus of GST (GST-gECT) (HSV-1)
Test: pull-down

In the case of “VP22 W221F fused to the N-terminus of GFP (from UniProt P10233 1-301) (natural protein)”, the binding efficiency (% of wild-type VP22-GFP) is reported as 54%.

Substance “VP22 F196W fused to the N-terminus of GFP (from UniProt P10233 1-301) (natural protein)” has a binding efficiency (% of wild-type VP22-GFP) of 140%.

Source: paper PMC3466811 (Virology, 2010)
